Measured values from several laboratories, pooled; numbers as filed in NIAID ChemDB.

Common to all: target-level tests; agent: HIV-1; target: Protease

Rows are shuffled and stem from different studies.

structure,measure,strain,setting,method,value
CC(C)[C@H](NC(=O)OCc1ccccc1)C(=O)N[C@@H](Cc1ccccc1)[C@H](O)[C@H](Cc1ccccc1)NC(=O)[C@@H](NC(=O)OCC1CCCN(C)C1)C(C)C,IC50,-,-,fluorescence,<0.05 µM
CC(C)[C@H](NC(=O)OCc1ccccc1)C(=O)NCP(=O)(O)CNC(=O)[C@@H](NC(=O)OCc1ccccc1)C(C)C,IC50,-,-,-,>10 µM
C[C@@H]1CC[C@]2(C(=O)O)CC[C@]3(C)C(=CC[C@@H]4[C@@]5(C)C[C@@H](O)[C@@H](O)C(C)(C)[C@@H]5CC[C@]43C)[C@@H]2[C@]1(C)O,IC50,-,-,HPLC,>17.9 µg/mL
CC(C)CN([C@H](CO)CCCCNC(=O)[C@H](Cc1ccc2ccccc2c1)NC(=O)CC(F)(F)F)S(=O)(=O)c1ccc(N)cc1,Ki,NL4-3,-,fluorescence,0.0016 µM
COC(=O)[C@@H](NC(=O)[C@@H](NC(=O)[C@H](C)C[C@H](O)[C@H](Cc1ccccc1)NC(=O)[C@H](C)NC(=O)[C@H](C)NC(=O)OCc1ccccc1)C(C)C)C(C)C,Ki,-,-,-,0.0007 µM
CC[C@H](C)[C@H](NC(=O)OCc1ccccc1)C(=O)N[C@@H](Cc1ccccc1)C(O)[C@H](Cc1ccccc1)NC(=O)[C@@H](NC(=O)OCc1ccccc1)[C@@H](C)CC,IC50,-,-,fluorescence,<0.005 µM
O=C(NC(Cc1ccccc1)P(=O)(O)CC(Cc1ccccc1)C(=O)O)c1ccccc1,Ki,-,pH 4.5,-,10 µM
CC(C)[C@H](NC(=O)c1ccc2ccccc2n1)C(=O)N[C@@H](Cc1ccccc1)[C@H](O)C(=O)N1CCC[C@H]1C(=O)NC(C)(C)C,IC50,BRU,-,substrate cleavage,0.0043 µM
CC(C)[C@H](NC(=O)[C@@H](NC(=O)C1CCCCC1P(=O)(O)C(Cc1ccccc1)NC(=O)OCc1ccccc1)C(C)C)C(N)=O,Ki,-,pH 6.5,-,0.05 µM
NC(Cc1ccccc1)C(O)C(F)(F)C(N)Cc1ccccc1,IC50,-,-,fluorescence,<0.005 µM
COC(=O)[C@@H](NC(=O)[C@@H](NC(=O)[C@@H]1CCCC1P(=O)(O)[C@H](Cc1ccccc1)NC(=O)[C@H](C)NC(=O)[C@H](C)NC(=O)[C@@H](N)CO)C(C)C)C(C)C,Ki,-,-,-,4 µM
C[C@@H]1CC[C@]2(C(=O)O)CC[C@]3(C)C(=CC[C@@H]4[C@@]5(C)C[C@@H](O)[C@H](O)C(C)(C)[C@@H]5CC[C@]43C)[C@@H]2[C@]1(C)O,IC50,-,-,HPLC,~17.9 µg/mL
CC(C)CN(C[C@@H](O)[C@H](Cc1ccccc1)NC(=O)[C@@H](NC(=O)CNCc1cccc(F)c1)C(C)(C)C)S(=O)(=O)c1ccc(N)cc1,Ki,-,-,fluorescence,0.000021 µM
CC[C@H](C)[C@@H]1NC(=O)[C@@H](NC[C@H](O)[C@H](Cc2ccccc2)NC(=O)[C@@H](NC(=O)[C@H](CC(C)C)NC(C)=O)C(C)C)Cc2ccc(cc2)OCCCNC1=O,IC50,-,-,fluorescence,0.002 µM
CC(C)[C@H](NC(=O)COc1cccc2ccccc12)C(=O)N[C@@H](Cc1ccccc1)[C@H](O)C(=O)N1[C@H](C(=O)NC(C)(C)C)C[C@@H]2CCCC[C@@H]21,IC50,BRU,-,substrate cleavage,0.0057 µM
CC(C)[C@H](NC(=O)OCc1ccccc1)C(=O)N[C@@H](Cc1ccccc1)C(O)[C@H](Cc1ccccc1)NC(=O)[C@@H](NC(=O)OCc1ccccc1)C(C)C,IC50,-,-,HPLC,0.025 µM
CC(C)(C)NC(=O)[C@@H]1C[C@@H]2CCCC[C@@H]2N1C(=O)[C@@H](O)[C@H](Cc1ccccc1)NC(=O)[C@H](CC(N)=O)NC(=O)COc1ccc2cc(Br)ccc2c1,IC50,BRU,-,substrate cleavage,0.0058 µM
CC[C@H](C)[C@H](NC(=O)[C@H](Cc1ccccc1)C[C@H](O)[C@H](Cc1ccccc1)NC(=O)OC(C)(C)C)C(=O)NCc1nc2ccccc2[nH]1,Ki,-,-,HPLC,0.00007 µM
CCCCOC(=O)COc1ccc(C[C@H](NC(=O)OC(C)(C)C)[C@H](O)CN[C@H]2Cc3ccc(cc3)OCCCNC(=O)[C@H]([C@@H](C)CC)NC2=O)cc1,IC50,-,-,fluorescence,0.005 µM
CC(C)[C@H](NC(=O)Cn1ccnc1)C(=O)N[C@@H](Cc1ccccc1)C(O)[C@H](Cc1ccccc1)NC(=O)[C@@H](NC(=O)OCc1ccccc1)C(C)C,IC50,-,-,fluorescence,>0.01 µM
CC[C@H](C)[C@@H]1NC(=O)[C@@H](NC[C@@H](O)[C@H](Cc2ccc(OCC(=O)O)cc2)NC(=O)OC(C)(C)C)Cc2ccc(cc2)OCCCNC1=O,IC50,-,-,fluorescence,0.025 µM
COc1ccc(S(=O)(=O)NC(N)=NCCC[C@H](NC(=O)N[C@@H](Cc2ccccc2)C(=O)OC(C)(C)C)C(=O)N[C@H](C(=O)N[C@H](COCc2ccccc2)Cc2ccccc2)C(C)C)cc1,IC50,-,-,HPLC,>100 µM
CC(C)C(C(=O)N[C@@H](Cc1ccccc1)[C@@H](O)[C@H](O)[C@H](Cc1ccccc1)NC(=O)C(C(C)C)N(C)C)N(C)C,IC50,-,-,fluorescence,<0.005 µM
CC(C)[C@H](NC(=O)[C@@H](NC(=O)C1CCCC1P(=O)(O)C(NC(=O)OCc1ccccc1)c1ccccc1)C(C)C)C(N)=O,Ki,-,pH 4.5,-,6.9 µM
CC(C)(C)NC(=O)[C@@H]1[C@@H]2CCCC[C@@H]2CN1C(=O)[C@@H](O)[C@H](Cc1ccccc1)NC(=O)[C@H](CC(N)=O)NC(=O)c1ccc2ccccc2c1,IC50,BRU,-,substrate cleavage,0.0013 µM
CC(C)[C@H](NC(=O)[C@@H](NC(=O)C1CCCC1P(=O)(O)C(Cc1ccccc1)NC(=O)c1ccccc1)C(C)C)C(N)=O,Ki,-,pH 6.5,-,13 µM
C[C@@H]1CC[C@]2(C(=O)O)CC[C@]3(C)C(=CC[C@@H]4[C@@]5(C)C[C@@H](O)C(=O)C(C)(C)C5CC[C@]43C)C2[C@]1(C)O,IC50,-,-,HPLC,<17.9 µg/mL
CC[C@H](C)[C@H](NC(=O)[C@@H]1CCCN1C[C@@H](O)[C@H](Cc1ccccc1)NC(=O)[C@H](CC(N)=O)NC(=O)[C@H](CC(C)C)NC(=O)[C@H](CO)NC(C)=O)C(=O)N[C@H](C(=O)OC)C(C)C,IC50,-,-,fluorescence,0.022 µM
COc1ccc(S(=O)(=O)NC(N)=NCCC[C@H](NC(=O)N[C@@H](Cc2ccccc2)C(=O)OC(C)(C)C)C(=O)N[C@H](C(=O)N[C@H](C=O)Cc2ccccc2)C(C)C)cc1,IC50,-,-,HPLC,>100 µM
Cc1cccc(C)c1OCC(=O)N[C@@H](Cc1ccccc1)[C@H](O)C(=O)N1CSC(C)(C)[C@H]1C(=O)NC(C)(C)C,Ki,IIIB,-,-,0.0217 µM
CC[C@H](C)[C@H](NC(=O)[C@@H](C[C@H](O)[C@H](CC1CCCCC1)NC(=O)OC(C)(C)C)C(C)C)C(=O)NCc1cccnc1,Ki,-,-,HPLC,0.07 µM
CC[C@H](C)[C@H](NC(=O)[C@@H]1CCCN1C[C@H](O)[C@H](Cc1ccccc1)NC(=O)[C@H](CC(N)=O)NC(=O)[C@H](CC(C)C)NC(C)=O)C(=O)N[C@H](C(N)=O)C(C)C,IC50,-,-,fluorescence,0.009 µM
CC(C)[C@H](NC(=O)OCc1cccnc1)C(=O)N[C@@H](Cc1ccccc1)[C@H](O)[C@@H](O)[C@H](Cc1ccccc1)NC(=O)[C@@H](NC(=O)OCc1cccnc1)C(C)C,IC50,-,-,fluorescence,<0.001 µM
CC[C@H](C)[C@H](NC(=O)[C@@H](C[C@H](O)[C@H](CC(C)C)NC(=O)[C@H](C)NC(=O)[C@H](CCC(N)=O)NC(=O)[C@H](CO)NC(=O)[C@@H](N)C(C)C)C(C)C)C(=O)N[C@H](C(=O)O)C(C)C,Ki,-,-,-,<0.01 µM

3 of the rows above, restated:

structure	measure	strain	setting	method	value
CC(C)[C@H](NC(=O)OCc1cccnc1)C(=O)N[C@@H](Cc1ccccc1)[C@H](O)[C@@H](O)[C@H](Cc1ccccc1)NC(=O)[C@@H](NC(=O)OCc1cccnc1)C(C)C	IC50	-	-	fluorescence	<0.001 µM
CC(C)C(C(=O)N[C@@H](Cc1ccccc1)[C@@H](O)[C@H](O)[C@H](Cc1ccccc1)NC(=O)C(C(C)C)N(C)C)N(C)C	IC50	-	-	fluorescence	<0.005 µM
CCCCOC(=O)COc1ccc(C[C@H](NC(=O)OC(C)(C)C)[C@H](O)CN[C@H]2Cc3ccc(cc3)OCCCNC(=O)[C@H]([C@@H](C)CC)NC2=O)cc1	IC50	-	-	fluorescence	0.005 µM

Blank or dashed fields: not listed here. ICn: concentration for n% inhibition.